According to paper PMC9606073 (Immunity, 2022):

Columns and labels:
Conditions in all cases: both partners purified
SARS-CoV RBD [1] = molecular target: SARS-CoV RBD (SARS-CoV (GenBank AAP13441.1), UniProt P59594)
SARS-CoV RBD [2] = molecular target: SARS-CoV RBD (SARS-CoV (GenBank AAP13441.1), UniProt P59594); remark: listed apart in the source
BtKY72-CoV RBD = BtKY72-CoV RBD (BtKY72 bat sarbecovirus (KY352407), UniProt A0A3Q8AKM0); experiment: ELISA
BM4831-CoV RBD [3] = molecular target: BM4831-CoV RBD (Bat coronavirus BM48-31/BGR/2008); experiment: ELISA
Khosta2 RBD [4] = molecular target: Khosta2 RBD (Bat SARS-like coronavirus Khosta-2); experiment: ELISA
BM4831-CoV RBD [5] = molecular target: BM4831-CoV RBD (Bat coronavirus BM48-31/BGR/2008, strain); experiment: SPR
Khosta2 RBD [6] = molecular target: Khosta2 RBD (Bat SARS-like coronavirus Khosta-2, strain); experiment: SPR

B1: M8a-6 IgG (antibody, V domains shown)
VH: QVQLQQPGTELVMPGASVKLSCKTSGYTFTHYWMHWVKQRPGEGLEWIGEIAPSDNYVKYNQKFKGKSTLSVDRSSSTAYMQLSSLTSEDSAVYFCARPDNSGYPVYFDYWGQGTSLTVSS
VL: DIVMTQSQKFMSTSLGDRVSISCKASQDVGTTVAWYQQKPGQSPKLLIYWASTRHTGVPDRFTGTGSGTDYTLTISSVAAEDLALYYCQQHYNTPYTFGGGTKLEIE
notes: copies: 2 + 2
For B1, which Kd (SARS-CoV RBD [1]) is on record?
Its Kd is 1100 nM.

B2: M8a-31 IgG (antibody, V domains shown)
VH: EVQLKQSVAELVRPGASVKVSCTASGFNIKNIYMHWVKQRPEQGLDWIGRIDPANGNSRYAPKFQDKATITADTSSNTAYLQLSSLTSEDTAIYYCADEGWGFANWGQGTLVTVSA
VL: DIVMTQSPSSLTVTAGEKVTMSCKSSQSLLNSGNQKNYLTWYQQKVGQPPKLLIYWASTRDPGVPDRFTGSGFGTDFTLTISSVQAEDLAVYYCQNDYSYPLTFGAGTKVELK
notes: copies: 2 + 2
Does B2 bind (SARS-CoV RBD [2])?
Result: binds

Does B2 bind (BtKY72-CoV RBD)?
Result: binds

Does B2 bind (BM4831-CoV RBD [3])?
Result: binds

Does B2 bind (Khosta2 RBD [4])?
Result: binds

B3: C118 IgG (antibody, V domains shown)
VH: QVQLVESGGGVVQPGRSLRLSCAASGFTFSNYAMHWVRQAPGKGLEWVAVISYDGSNKYYADSVKGRFTISRDNSKNTLYLQMNSLRAEDTAIYYCASGYTGYDYFVRGDYYGLDVWGQGTTVTVSS
VL: QPVLTQSPSASASLGASVKLTCTLSSGHSSYAIAWHQQQPEKGPRYLMKLNTDGSHSKGDGIPDRFSGSSSGAERYLTISSLQSEDEADYYCQTWGTGILVFGGGTKLTVL
notes: copies: 2 + 2
With B3 as the binder, how does the Kd (BM4831-CoV RBD [5]) read?
Its Kd is 7.9 nM.

What about the koff (BM4831-CoV RBD [5]) of the same binder?
The koff was 0.00085 s⁻¹.

And the kon (BM4831-CoV RBD [5])?
The kon was 110000 M⁻¹ s⁻¹.

And the Kd (Khosta2 RBD [6])?
Its Kd is 33 nM.

And the koff (Khosta2 RBD [6])?
The koff was 0.0011 s⁻¹.

And the kon (Khosta2 RBD [6])?
The kon was 34000 M⁻¹ s⁻¹.

And the Kd (SARS-CoV RBD [1])?
Its Kd is 110 nM.

And the koff (SARS-CoV RBD [1])?
The koff was 0.0069 s⁻¹.

What about the kon (SARS-CoV RBD [1]) of the same binder?
Its kon is 60000 M⁻¹ s⁻¹.

B4: M8a-3 IgG (antibody, V domains shown)
VH: QVQLQQPGAELVLPGASVKLSCKASGYTFTNYWMHWVKQRPGHGLEWIGEIDPFDTYIKINQKFKGKSTLTVDTSSSTAYMQLSSLTSEDSAVYYCARPDSSGYPVYFDYWGQGTTLTVSS
VL: DIVMTQSHKFMSTSVGDRVSITCKASQDVGTYIAWYQQKPGQSPKLLIYWASTRHTGVPDRFTGSGSGTNYTLTISSVQAEDLALYHCQQHYSTPYTFGGGTKLEIK
notes: copies: 2 + 2
Which Kd (Khosta2 RBD [6]) does the source give for B4 here?
Its Kd is 35 nM.

And the koff (Khosta2 RBD [6])?
The koff was 0.0046 s⁻¹.

What about the kon (Khosta2 RBD [6]) of the same binder?
Its kon is 130000 M⁻¹ s⁻¹.

What about the Kd (SARS-CoV RBD [1]) of the same binder?
The Kd was 0.41 nM.

What about the koff (SARS-CoV RBD [1]) of the same binder?
The koff was 0.00015 s⁻¹.

And the kon (SARS-CoV RBD [1])?
The kon was 380000 M⁻¹ s⁻¹.

B5: M8a-3 IgG (antibody, V domains shown)
VH: B4 VH
VL: B4 VL
notes: copies: 2 + 2
Does B5 bind (BtKY72-CoV RBD)?
Result: binds

B6: M8a-34 IgG (antibody, V domains shown)
VH: QVQLQQPGAELVKPGASVKMSCKASGYTFITYWITWVKQRPGQGLEWIGDIYPGGGRTNYNEKFKSKATLTVDTSSSTAYMQLRSLTSEDSAVYYCARYDGNYVGYYYAMDYWGQGTSVTVSS
VL: DIVLTQSPVSLAVSLGQRATISCRASESVDFYGNSFIYWYQQKPGQAPKLLIYRASNLESGIPARFSGSGSRTDFTLTIHPVEADDVATYYCQQSIEDPRTFGGGTKLEIK
notes: copies: 2 + 2
Does B6 bind (SARS-CoV RBD [2])?
Result: binds

Does B6 bind (BtKY72-CoV RBD)?
Result: binds

Does B6 bind (BM4831-CoV RBD [3])?
Result: binds

Does B6 bind (Khosta2 RBD [4])?
Result: binds
